Key:
Assay in all cases: MTT assay
Type in all cases: cell-based
[1] = test system: A549 human lung adenocarcinoma cell line; settings: SI = IC50 NIH/3T3 / IC50 A549; >value taken as the value
Protocol: (§1) The anticancer effects of compounds 1–10 on A549 human lung adenocarcinoma (ATCC® CCL-185™), HepG2 human hepatocellular carcinoma (ATCC® HB-8065™), and C6 rat glioma (ATCC® CCL107™) cell lines were assessed using 3-(4,5-Dimethylthiazol-2-yl)-2,5-diphenyltetrazolium bromide (MTT) assay, whereas the selectivity of compounds 1–10 was tested using NIH/3T3 mouse embryonic fibroblast cell line (ATCC® CRL-1658™, London, UK). All cell lines were incubated according to the supplier’s recommendations. The cells were seeded as 1 × 10^4 cells into each well of the 96-well plates. MTT assay was performed as previously described. The compounds were tested between the concentrations equal to 1 mM and 0.000316 mM (1.0, 0.316, 0.10, 0.0316, 0.01, 0.00316, 0.001, 0.000316 mM). Stock solutions of compounds were prepared in dimethyl sulfoxide (DMSO) and further dilutions were made with fresh culture medium. The final DMSO concentration was under 1% [34] and cisplatin was used as a positive control. Inhibition % was calculated for each concentration according to the formula below, and IC50 values were determined by plotting a dose–response curve of inhibition % versus compound concentrations tested. All experiments were performed in quadruplicate.Inhibition % = 100 − [(ODtest compound − ODblank/ODsolvent control − ODblank)] × 100(1)

C6 rat glioma cell line = settings: SI = IC50 NIH/3T3 / IC50 C6; >value taken as the value
Protocol: as §1

[2] = test system: HepG2 human hepatocellular carcinoma cell line; settings: SI = IC50 NIH/3T3 / IC50 HepG2; >value taken as the value
Protocol: as §1

Cn1cccc1C(=O)C=Cc1ccc(-c2ccc(Cl)c(Cl)c2)o1 [Compound 10, 1-(1-Methyl-1H-pyrrol-2-yl)-3-(5-(3,4-dichlorophenyl)furan-2-yl)prop-2-en-1-one]
SI Values A549 Cell Line [1]: 0.428 | SI Values C6 Cell Line (C6 rat glioma cell line): 1.480 | SI Values HepG2 Cell Line [2]: 1.480

Cn1cccc1C(=O)C=Cc1ccc(-c2ccc(Cl)cc2[N+](=O)[O-])o1 [Compound 4, 1-(1-Methyl-1H-pyrrol-2-yl)-3-(5-(2-nitro-4-chlorophenyl)furan-2-yl)prop-2-en-1-one]
SI Values A549 Cell Line [1]: 0.100 | SI Values C6 Cell Line (C6 rat glioma cell line): 0.100 | SI Values HepG2 Cell Line [2]: 0.360

Cn1cccc1C(=O)C=Cc1ccc(-c2ccc(Cl)cc2)o1 [Compound 7, 1-(1-Methyl-1H-pyrrol-2-yl)-3-(5-(4-chlorophenyl)furan-2-yl)prop-2-en-1-one]
SI Values A549 Cell Line [1]: 0.408 | SI Values C6 Cell Line (C6 rat glioma cell line): 0.129 | SI Values HepG2 Cell Line [2]: 1.739

Cn1cccc1C(=O)C=Cc1ccc(-c2ccc([N+](=O)[O-])cc2)o1 [Compound 1, 1-(1-Methyl-1H-pyrrol-2-yl)-3-(5-(4-nitrophenyl)furan-2-yl)prop-2-en-1-one]
SI Values A549 Cell Line [1]: 363.33 | SI Values C6 Cell Line (C6 rat glioma cell line): 1.298 | SI Values HepG2 Cell Line [2]: 0.339

Cn1cccc1C(=O)C=Cc1ccc(-c2cccc(Cl)c2)o1 [Compound 6, 1-(1-Methyl-1H-pyrrol-2-yl)-3-(5-(3-chlorophenyl)furan-2-yl)prop-2-en-1-one]
SI Values A549 Cell Line [1]: 0.388 | SI Values C6 Cell Line (C6 rat glioma cell line): 0.369 | SI Values HepG2 Cell Line [2]: 0.388

Cn1cccc1C(=O)C=Cc1ccc(-c2cc(Cl)ccc2Cl)o1 [Compound 9, 1-(1-Methyl-1H-pyrrol-2-yl)-3-(5-(2,5-dichlorophenyl)furan-2-yl)prop-2-en-1-one]
SI Values A549 Cell Line [1]: 0.315 | SI Values C6 Cell Line (C6 rat glioma cell line): 1 | SI Values HepG2 Cell Line [2]: 1.079

Cn1cccc1C(=O)C=Cc1ccc(-c2ccccc2[N+](=O)[O-])o1 [Compound 3, 1-(1-Methyl-1H-pyrrol-2-yl)-3-(5-(2-nitrophenyl)furan-2-yl)prop-2-en-1-one]
SI Values A549 Cell Line [1]: 1 | SI Values C6 Cell Line (C6 rat glioma cell line): 1 | SI Values HepG2 Cell Line [2]: 11.926

N.N.[Cl][Pt][Cl] [Cisplatin, reference compound]
SI Values A549 Cell Line [1]: 15.789 | SI Values C6 Cell Line (C6 rat glioma cell line): 6.520 | SI Values HepG2 Cell Line [2]: 7.895

Cn1cccc1C(=O)C=Cc1ccc(-c2cccc([N+](=O)[O-])c2)o1 [Compound 2, 1-(1-Methyl-1H-pyrrol-2-yl)-3-(5-(3-nitrophenyl)furan-2-yl)prop-2-en-1-one]
SI Values A549 Cell Line [1]: 1 | SI Values C6 Cell Line (C6 rat glioma cell line): 1.248 | SI Values HepG2 Cell Line [2]: 1.162

Cn1cccc1C(=O)C=Cc1ccc(-c2ccc(Cl)cc2Cl)o1 [Compound 8, 1-(1-Methyl-1H-pyrrol-2-yl)-3-(5-(2,4-dichlorophenyl)furan-2-yl)prop-2-en-1-one]
SI Values A549 Cell Line [1]: 1.231 | SI Values C6 Cell Line (C6 rat glioma cell line): 3.077 | SI Values HepG2 Cell Line [2]: 2.613

Cn1cccc1C(=O)C=Cc1ccc(-c2ccccc2Cl)o1 [Compound 5, 1-(1-Methyl-1H-pyrrol-2-yl)-3-(5-(2-chlorophenyl)furan-2-yl)prop-2-en-1-one]
SI Values A549 Cell Line [1]: 0.145 | SI Values C6 Cell Line (C6 rat glioma cell line): 0.145 | SI Values HepG2 Cell Line [2]: 1.450

Source: paper PMC6149822, “A New Series of Pyrrole-Based Chalcones: Synthesis and Evaluation of Antimicrobial Activity, Cytotoxicity, and Genotoxicity” (Molecules : A Journal of Synthetic Chemistry and Natural …, 2017)
